# Primary screen of a compound library

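Phenotypic screen: M. tuberculosis growth, glucose 7H9 medium, 3 days; the read-out is not stated. Compounds at 50 µM. The record gives no direction; compounds that gave an IC50 in retests scored well above the rest, so higher reads as more growth inhibition. Of about 69,000 compounds tested this way, about 760 (1.1%) reached 50% or more in at least one test.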

Values are the deposited “Percent Effect”, in %. The record does not define 0% and 100%; most values in the screen are far below 50% and negative numbers occur (in some assays of this library far below -100). Many other results are left out here, so strong results are more common than in the screen. Two or more numbers in one place are separate tests of the same structure; such repeats can differ widely.

SMILES,percent effect
Cl.O=C1CC2(CCNCC2)C(=O)N1Cc1ccc(F)cc1,-8.628
COc1ccc(OC)c(-n2cnnc2CCN)c1,7.986
COc1ncc(C(=O)NCc2ccc(Br)cc2)cn1,19.36
COc1cccc(CNc2cc(C)nc(-c3ccncc3)n2)c1O,36.02
CCN(CC)C(=O)C1CCN(c2ccc(Cl)cc2C#N)CC1,3.006 & -28.04
COc1c(Br)cccc1CCNC(=O)c1ccon1,23.21 & 45.82
CC(C)CC(CO)NC(=O)NCc1csc(N(C)C)n1 (centres undefined),3.268 & 20.56
CCc1ccccc1NC(=O)CCc1cnn(C)c1,-16.53
Cc1cc2n(n1)CCN(c1nc(N(C)C)nc3c1CCNC3)C2,-7.923 & 15.42
N#CCCN(Cc1cccnc1)C(=O)c1cc(Cl)c[nH]1,31.12
CC(C)c1nc(CSc2nnc(C3CC3)n2CC(N)=O)no1,-13.47
Fc1ccc(CCC2CCCN(Cc3c[nH]cn3)C2)c(F)c1 (centres undefined),34.69
COc1ccc(-c2cc(C[C@@H]3C[C@H](N(C)C)C3(C)C)no2)cc1,11.48 & -3.36
Fc1ccccc1CN1CCCC2(CCN(c3ncccn3)C2)C1 (centres undefined),38.41 & 40.6
COc1ccc(COCC(O)CNC(=O)c2cc(C)no2)cc1 (centres undefined),0.1555
CC(C)(C)c1nc(CN2CCC(c3ccnn3CCO)CC2)no1,102.5
COC(=O)CNC(=O)CCCn1cnc2ccccc2c1=O,-8.282
CSCC(CCO)Nc1cccc(C(F)(F)F)n1 (centres undefined),23.42
Cc1noc(CCCC(=O)NC(C)c2cccnc2)n1 (centres undefined),-23.35
CCc1cnc(C)nc1N1CCN(Cc2ccc(-c3cc[nH]n3)o2)CC1,0.522
Fc1ccc(C(NCc2nnc(C3CC3)o2)C2CCC2)cc1 (centres undefined),44.42
COc1ccc(OC)c(CN2CCc3nc4ccsc4c(=O)n3CC2)c1.Cl,28.43
CCn1nnc(NCc2cc(Cl)cc(Cl)c2OC)n1,3.859
Cc1ccn(CCC(=O)NCc2ccco2)n1,33.7
OCC(O)CSCc1ccc(Cl)cc1Cl (centres undefined),6.197
O=C1CCNc2ncc(-c3ccc(Cl)cc3)cc2CN1C1CC1,33.67
CC(C(=O)Nc1ccccn1)n1ccc(C(F)(F)F)n1 (centres undefined),-1.407
CCN1CCN(C(=O)c2c[nH]c(C(C)C)n2)c2ccccc21,4.349 & -8.705
CC(C)c1cc(CN2CCC(CC(=O)O)CC2)no1,-7.141
Cc1nn(C2CCCCC2)c2nc(C(C)(C)CN3CCOCC3)[nH]c12,-3.772
CN(C)c1ccc(-c2cc(C(=O)O)cc(S(=O)(=O)NC3CC3)c2)cc1,25.21
COc1cc(C)sc1C(=O)NCCC(=O)N(C)c1ccccc1,-0.2156 & -2.982
CCSCCNc1cc(C)nc2c(C)c(C)nn12,86.03
COc1ccc(-n2nnc(C(N)=O)n2)cc1,13.29
CCCc1nnc(N2CC[C@@](O)(C3CCOCC3)[C@H](C)C2)s1,-4.658
CCc1ccccc1CNC(=O)CNCC(F)(F)F,52.62
CS(=O)(=O)NC1CCN(Cc2coc(-c3ccc(Cl)cc3)n2)CC1,15.44 & 4.527
CCN1C(=O)C2(CCOCC2)c2cc(NC(=O)c3cnoc3C)ccc21,53.38 & -1.818
Cc1ccc2c(c1)CCC21CCN(CCO)CC1,6.449 & 1.678
CN(C)c1ccc(C(=O)N2CCCC2c2cnn(C)c2)nn1 (centres undefined),108.4 & -15.33
CCOc1cc(C)c(-c2cc(N)[nH]n2)cc1OCC,20.78
CCC1=NC(SCC(=O)c2ccc(C)cc2)c2cc(CC)sc2N1 (centres undefined),-44.06
CNc1ncc(C(=O)N2CCC(c3ccccc3C(=O)O)C2)cn1 (centres undefined),-0.3444 & -11.47
COc1cc(C#N)ccc1OC12CCCN(CC1)C2 (centres undefined),29.69
COc1c(Cl)cc(Cl)cc1CN1CCC(C(N)=O)C1 (centres undefined),-4.559 & 78.5
OC1(c2ccccc2F)CCN(Cc2ccccc2N2CCCC2)CC1,36.19
Cc1c(CS(C)(=O)=O)cccc1NCCCC1CCCC1,9.34 & 26.43
C=C(C)CN1CCN(CCC(=O)Nc2ccccc2C(N)=O)CC1,12.96
Cn1cc(C(=O)Nc2ccc3c(c2)CN(C(=O)c2ccco2)CC3)nn1,56.22
COC(=O)CNC(=O)c1scnc1C,-9.509
Cc1nc2c(c(NCc3ccc(-c4ccccn4)s3)n1)CCNCC2,5.268
O=C(NCCc1ccccc1Cl)NCC1(O)CCSC1 (centres undefined),27.55
O=C(CCCc1ccccn1)N1CCSC2(CCCCC2)C1,12.04
CC(O)CN1CCC(CNCc2c[nH]nc2C(C)(C)C)CC1 (centres undefined),8.335
CCN(C(=O)CN1CCCC1c1cccs1)c1ccccc1C (centres undefined),58.44
N[C@@H]1c2ccccc2C2(CCN(c3ccc(C(F)(F)F)cn3)CC2)[C@H]1O,39.57
CN(Cc1nnc2n1CCC2)C(=O)c1ccc2c(c1)OCO2,-12.86
C=Cc1ccc(CN2CCCC3(CNC(=O)c4ccccc4O3)C2)cc1 (centres undefined),-0.3033
N#Cc1ccc(N2CCCN(CC(N)=O)CC2)cc1,15.04
Cn1ncc2c(NCCn3cccc3)nc(C3CCCC3)nc21,10.76
COC(=O)C(NC(=O)c1ccc(N(C)C)nc1)c1ccccc1 (centres undefined),44.87 & 55.96
CC(C)n1ccnc1CN1CCCN(C(=O)CC2C=CCC2)CC1 (centres undefined),-27.8
CSCc1cc(F)ccc1CNC(=O)N1CCCC1,23.44
CSc1ncc(C(=O)N2CCN(c3ccccc3C)CC2C)cn1 (centres undefined),62.95
O=C(O)C(F)(F)F.[H][C@@]12CN(Cc3ccco3)C[C@]1([H])C(=O)N(c1cncnc1)C2,15.45 & 3.598
CC(=O)Nc1nc(C(=O)NCc2ccnc(N3CCCC3)c2)cs1,-15.77
CC(C)CN1Cc2nc(N3CCCC3)ncc2C1=O,71.42
CN(C)CCNC(=O)C1Cc2nc(-c3ccsc3)sc2N1CC1CC1.O=C(O)C(F)(F)F (centres undefined),34.32
Cc1nc(N2CCCC2)nc2c1CCN(Cc1ccco1)CC2.O=C(O)C(F)(F)F,84.93
CC(C)CCC(=O)NCCc1ccn(-c2ccccc2)n1,32.89
Cc1ccc(N2CCN(c3ccccc3C)CC2C)nn1 (centres undefined),39.91 & 11.41
COC(=O)c1ccc(N2CCC(C(O)c3ccccc3)CC2)nn1 (centres undefined),94.89
CC(Nc1ncnc2c1NC(=O)CN2)c1ccc2c(c1)OCO2 (centres undefined),17.54
Clc1cccc(Cl)c1CNCCOc1ccccn1,1.622 & 14
CNC(=O)c1ccc(CNC(=O)c2ccc(Cl)cc2F)cc1,-14.18
O=S(=O)(NCCNc1ccc(-n2cccc2)nn1)c1ccccc1,95.63 & 70.35
Cc1nc(CN(C)C2CCCN(c3cccnn3)C2)nc2ccccc12 (centres undefined),11.96
Cc1nnn2c1COC(CNC(=O)c1cccn1C)C2 (centres undefined),-2.173
CN(Cc1ccc(F)cc1)S(=O)(=O)N1CCOCC1,-31.47
CCN(CC)CCn1cnc(-c2ccccc2)c1-c1ncc[nH]1,-4.87 & 95.17
CCN(C)CC(=O)N1CCC(c2cc(N3CCOCC3)nc(C)n2)CC1,-0.9815
FC1(F)CCN(Cc2cccnc2)CC12CCN(c1ccccn1)C2.O=C(O)C(F)(F)F.O=C(O)C(F)(F)F.O=C(O)C(F)(F)F (centres undefined),45.81
Cc1cc(-c2noc(C3CCS(=O)(=O)C3)n2)ccc1F (centres undefined),23.82 & 8.367
Cc1ccc(CN[C@@H]2COC[C@H]2c2ccc(F)cc2)cc1C.O=C(O)CC(O)(CC(=O)O)C(=O)O,56.52
O=C1N(Cc2ccc(F)c(F)c2)CCCC12CCN(C1CCSCC1)C2 (centres undefined),58.09
CC(C)c1nc(C(=O)N(C)c2ccc(Br)cn2)cs1,29.06 & 9.143
CN(Cc1nnc2n1CCC2)C(=O)c1ccc2c(c1)OCCCO2,111.9
Cc1ccc(CC(=O)N2CCn3cc(Cn4cncn4)nc3C2)cc1,3.87 & 13.87

The last 6 entries again:

SMILES	percent effect
Cc1cc(-c2noc(C3CCS(=O)(=O)C3)n2)ccc1F (centres undefined)	23.82 & 8.367
Cc1ccc(CN[C@@H]2COC[C@H]2c2ccc(F)cc2)cc1C.O=C(O)CC(O)(CC(=O)O)C(=O)O	56.52
O=C1N(Cc2ccc(F)c(F)c2)CCCC12CCN(C1CCSCC1)C2 (centres undefined)	58.09
CC(C)c1nc(C(=O)N(C)c2ccc(Br)cn2)cs1	29.06 & 9.143
CN(Cc1nnc2n1CCC2)C(=O)c1ccc2c(c1)OCCCO2	111.9
Cc1ccc(CC(=O)N2CCn3cc(Cn4cncn4)nc3C2)cc1	3.87 & 13.87

From ChEMBL document CHEMBL3988442, “University of Dundee, Small-Polar-MMV Screening Library” (2021).